15 molecules from US20220251174A1 (published 2022) can be followed below.

B1: 27-A11 (full-length human IgG1) (antibody, V domains shown)
VH: QVQLVQSGAEVKKPGASVKVSCKASGYTFTSYYMHWVRQAPGQGLEWMGIIDPSGGSTSYAQKFQGRVTLTRDTSTSTVYMELSSLRSEDTAVYYCARSRDGYIDDAFDIWGQGTLVTVSS
VL: QSVLTQPPSVSAAPGQKVTISCSGSSSNIGNNYVSWYQQLPGTAPKLLIYDNNKRPSGIPDRFSGSKSGTSATLGITGLQTGDEADYYCGTWDSSLSAGVFGGGTKLTVL
B2: 5-B6 (full-length human IgG1) (antibody, V domains shown)
VH: QVQLVQSGAEVKKPGSSVKVSCKASGGTFSSYAISWVRQAPGQGLEWVGGIIPMFNSASYAQKFQGKVTITADKATNTAYMELSSLRSEDTAVYYCARESSGYYYVSNWFDPWGQGTLVTVSS
VL: QSVLTQPSSVSGAPGQRVTISCTGSSSNIGAGYDVHWYQQIPGTAPRLLIYANSGRASGVPDRFSGSKSGTSASLAITGLQAEDEADYYCQSYDSSLSGVVFGGGTKLTVL
B3: 8-D4 (full-length human IgG1) (antibody, V domains shown)
VH: EVQLVQSGAEVKKPGESLKISCKGSGYSFTSYWIGWVRQMPGKGLEWMGIIYPGDSDTRYSPSFQGQVTISADKSISTAYLQWSSLKASDTAMYYCARNPSLYSSPTDYWGQGTLVTVSS
VL: not shown
B4: 13-A1 (full-length human IgG1) (antibody, V domains shown)
VH: EVQLVQSGAEVKKPGESLKISCKGSGYSFTSYWIGWVRQMPGKGLEWMGIIYPGDSDTRYSPSFQGQVTISADKSISTAYLQWSSLKASDTAMYYCARYLSSEGMDVWGKGTTVTVSS
VL: QSVLTQPPSASGTPGQRVTISCSGRSSNIGSNPVNWYQQLPGTAPKLLIYNNIQRPSGVPDRFSGSKSGTSASLAISGLQSEDEAVYYCASWDDSLNEGVFGGGTQLTVL
B5: 21-F2 (full-length human IgG1) (antibody, V domains shown)
VH: QVQLVQSGAEVKKPGASVTVSCKTSGYIFTNYDINWVRQAPGQGLEWVGWVNPNSGKVGYAQKFQGRVIMTRSDSESTAYMELTNLTSDDTAVYYCARGHTDFWGQGTLVTVSS
VL: QSVLTQPPSVSEAPRQRVTISCSGSSSNIGNNAVNWYQQLPGRAPKLLIYYDDLLPSGVSDRFSGSKSGTSASLAISGLQSEDEADYYCAAWDDSLNGVVFGGGTQLTVL
B6: 8-A2 (full-length human IgG1) (antibody, V domains shown)
VH: QVQLVQSGAEVKKPGASVKVSCKASGYTFTGYYLHWVRQAPGQGLEWMGRINPNSGGTNYAQKFQGRVTMTRDTSISTAYMELSRLTSDDTAVYYCLAVAGTGGDAFDIWGQGTTVTVSS
VL: DIQMTQSPSTLSASVGDRVTITCRASQSISSWLAWYQQKPGKAPKLLIYAASSLESGVPSRFSGSGSGTDFTLTISSLQPEDFATYYCQQGHSFPLTFGGGTKVDIK
B7: 22-D9 (full-length human IgG1) (antibody, V domains shown)
VH: QVQLVQSGAEVKKPGSSVNVSCKTSGGTFNTYSINWVRQAPGQGLEWMGEIIPIFDKPNYAQKFQGRVTITADESTSTAYMELTSLRSDDTAVYYCARGTGYYYGMDVWGQGTTVTVSS
VL: QSVLTQPPSVSGAPRQTVTISCFGSRSNIGNYPVNWYHQVPGKAPKVVVYYDDLLPSGISDRFSGYKSGTSASLTISGLRSEDEADYYCATWDDSLNVWVFGGGTKLTVL
B8: 22-E7 (full-length human IgG1) (antibody, V domains shown)
VH: QVQLVESGGGVVQPGTSLRLSCAASGFTFNNYPMFWVRQAPGKGLEWLALISYDGNHKVYADSVKGRFTISRDNAKNTLYLQMHSLRAEDTALYYCASDLSGAEDSWGQGTLVTVSS
VL: QSALTQPASVSGSPGQSITISCTGTSSDVGGYNYVSWYQQHPGKAPKLLIYEVSNRPSGVSNRFSGSKSGNTASLTISGLQAEDEADYYCSSYTSSSTWVFGGGTKLTVL
B9: 22-E8 (full-length human IgG1) (antibody, V domains shown)
VH: QVQLVQSGAEVKKPGSSVKVSCKASGGTFSSYAISWVRQAPGQGLEWMGGIIPIFGTTNYAQKFQGRVTITADESTSTAYMELSSLRSEDTAVYYCARDHGYYYGMDVWGQGTTVTVSS
VL: QSVLTQPSSVSAAPRQRVTLSCSGGDSNIGQNGVNWYLHVPGKAPRLVVYYDYLVSAGMSARFSGSRSGTSASLAISGLQSEDEGVYYCASWDDSLSAWVFGGGTKLTVL
B10: 30-C5 (full-length human IgG1) (antibody, V domains shown)
VH: QVQLVESGGGVVQPGRSLRLSCAASGFTFSNYGMHWVRQAPGKGLEWVAVISYDGSIEYYADSVKGRFTISRDNSSNTLYLQMNSLRAEDTAVYYCARDEDGAFDIWGQGTTVTVSS
VL: DIVMTQSPESLAVSLGERATINCKSSESVSYSSSNKNYLSWYQQIPGQPPKLLIYWASTRESGVPDRFSGSGSGTDFTLTISSLQAEDVAVYYCQQYYSSPLTFGGGTKVEIK
B11: 23-A11 (full-length human IgG1) (antibody, V domains shown)
VH: QVQLVESGGGVVQPGRSLRLSCAASGFTFSSYGMHWVRQAPGKGLEWVAVISYDGSNKYYADSVKGRFTISRDNSKNTLYLQMNSLRAEDTAVYYCAKEGELRGAFDIWGQGTMVTVSS
VL: SYVLTQPPSVSVAPGKTARITCGGDNIESKYVHWYQQKPGQAPVLVIYYDTDRPSGIPERFSGANSGNSATLTISRVEAGDEADYYCQVWDRTSGHFVFGPGTKVTVL
B12: 22-F7 (full-length human IgG1) (antibody, V domains shown)
VH: QVQLVESGGGVVQPGRSLRLSCAASGFSFTNYGMHWVRQAPGKGLEWVAVISYDGSIKYYEDSLKGRFTVSRDNSKKTLYLQMNSLRAEDTAVYYCTRERGTGIDYWGLGTLVTVSS
VL: QSALTQPASVSGYPGQSITLSCTGTKSDIGAYNYVSWYQQHPGKAPKLMVYDVSNRPSGLSNRFSGSKSDNTASLTISGLQAEDEAHYYCSSYTTSGTVVFGGGTKVTVL
B13: 2-A6 (full-length human IgG1) (antibody, V domains shown)
VH: QVTLRESGPALVKPTQTLTLTCTFSGFSLNTRGMSVSWIRQPPGKALEWLALIDWEDDKFYRTSLMTRLTISKDIFKNQVVLTMTNVDPVDTGTYYCARTYSVGVKYFGMDVWGQGTTVTVSS
VL: SSELTQDPAVSVALGQTVRITCQGDSLRNYYASWYRQEPGQAPILLIYGGNYRPSGIPDRFSGSSSGNTASLTITGAQAEDEADYYCNSRDSSGNHVVFGGGTKLTVL
B14: 24-B8 (full-length human IgG1) (antibody, V domains shown)
VH: QVQLVQSGAEVKKPGSSVKVSCKASGGTFSNYAISWVRQAPGQGLEWMGGIIPILDTTNYAQKFQGRVTITADESTSTAYMELNSLRSEDTAVYYCVREEGFDYWGQGTLVTVSS
VL: QSVLTQPSSLSASPGASASLTCTLRSGINVGAYNIYWYQQKPGSPPQFVLRYNSDSDNQQGSGVPSRFSGSKDASANAGILLISGLQSEDEAEYYCMIWRSSAWVFGGGTKLTVL
B15: 11-H1 (full-length human IgG1) (antibody, V domains shown)
VH: not shown
VL: QSVLTQPPSVSEAPRQRVTISCSGSSSNIGNNAVNWYQQLPGQAPRLLIYYDNLLPSGVSDRFSASTSGTSASLAISDLRSEDEADYYCASWDDRLDSPVFGGGTKLTVL

This assay concerns the target SARS-CoV-2 Spike protein (D614G) on authentic virus BetaCoV/Munich/BavPat1/2020. Put plainly: cell-based or functional assay.
For B1, the “Live virus IC50 (µg/mL) (printed 'Love Virus')” value (shortened to “Live virus IC50 (µg/mL)”) is greater than 100 µg/mL. As for B2, the “Live virus IC50 (µg/mL)” value is greater than 100 µg/mL. Consider B3, for which the “Live virus IC50 (µg/mL)” value is greater than 100 µg/mL. With B4 the figure was greater than 100 µg/mL; with B5, 10.5 µg/mL; with B6, greater than 100 µg/mL. With B7 the figure was greater than 100 µg/mL; with B8, greater than 100 µg/mL.

For B9, the “Live virus IC50 (µg/mL)” value is greater than 100 µg/mL. For the molecule B10, the “Live virus IC50 (µg/mL)” value was greater than 100 µg/mL. With B11 the figure was greater than 100 µg/mL. Take B12: the “Live virus IC50 (µg/mL)” value is greater than 100 µg/mL. With B13 the figure was greater than 100 µg/mL. On to B14, for which the “Live virus IC50 (µg/mL)” value is greater than 100 µg/mL. With B15 the figure was greater than 100 µg/mL.
